Reference: publication PMC6465249 (Cell Discovery, 2019)

Biological target: H3-AC/68 HA (hemagglutinin of H3N2 A/Aichi/2/1968) (Influenza A virus A/Aichi/2/1968 (H3N2), strain, N-linked glycan at Asn38 of HA1)
Assay: crystal structure

B1: AF4H1K1 Fab (Fab, V domains shown)
VH: QVQLVESGGGVVQPGTSLRLSCEASGFTSSAYAMHWVRQAPGKGLEWVAVITFDGGYQYYADSVKGRFTISRDISRNTLHLHMNSLRAEDTAVYYCARDPLTKLLPFDWVSGGYFDYWGQGTLVTVSS
VL: not shown
notes: also called AF4H1K1 Fab fragment
binding result: binds
